Pooled drug test results. Numbers come from NIAID ChemDB, via PubChem.

All rows: whole-cell or culture tests; agent: Aspergillus fumigatus

A number after MIC or MFC names an inhibition level or a share of isolates. Neighbouring rows are from separate reports. Blank or dashed fields: not listed here. Two numbers with a dash give a range or band. ECn: concentration that inhibits the pathogen or its effect by n%.

compound | strain or isolate | mutations | endpoint | read by | result
Cc1ccc(-n2nc(C)c(C3C(C#N)=C(N)OC4=C3C(=O)CCC4)c2Oc2ccc(Cl)cc2)cc1 | MTCC 3008 | - | MIC | - | 250 µg/mL
Cc1ccc(Oc2nc3ccccc3cc2C2C(C#N)=C(N)Oc3c2c(=O)oc2ccc(C)cc32)cc1 | MTCC 3008 | - | MIC | - | 500 µg/mL
CCOC(=O)C1=C(N)N(c2nc(-c3ccccc3)cs2)C2=C(C(=O)CCC2)C1c1cc2cc(OC)ccc2nc1F | MTCC 3008 | - | MIC | broth dilution | 100 µg/mL
COc1ccc(OC)c(C=O)c1 | AF293 | - | MIC | agar | 1500 µM
C[C@@H]1[C@H](O)[C@@H](C)/C=C/C=C/CC/C=C/C=C/C=C/C=C/C(O[C@H]2O[C@H](C)[C@@H](O)[C@H](N)[C@@H]2O)CC2O[C@](O)(CC(O)C(O)CCC(O)CC(O)CC(O)CC(=O)O[C@H]1C)CC(O)C2C(=O)O | MTCC 3008 | - | MIC | broth dilution | 100 µg/mL
CCC(C)n1ncn(-c2ccc(N3CCN(c4ccc(OC[C@H]5CO[C@](Cn6cncn6)(c6ccc(Cl)cc6Cl)O5)cc4)CC3)cc2)c1=O | - | TR46 azole-resistant | MIC50 | broth dilution | >16 µg/mL
Cc1ccc2nc(Oc3ccccc3)c(C3C(C#N)=C(N)OC4=C3C(=O)CCC4)cc2c1 | MTCC 3008 | - | MIC | - | >1000 µg/mL
N#CC(Cc1cc2ccccc2nc1N1CCOCC1)c1nc2ccccc2[nH]1 | MTCC 3008 | - | MIC | broth dilution | 1000 µg/mL
CCOC(=O)C1=C(N)N(c2nc(-c3ccc(Cl)cc3)cs2)C2=C(C(=O)CCC2)C1c1cc2cc(OC)ccc2nc1F | MTCC 3008 | - | MIC | broth dilution | >1000 µg/mL
C[C@@H](c1ncncc1F)[C@](O)(Cn1cncn1)c1ccc(F)cc1F | - | - | MIC80 | broth dilution | >64 µg/mL
Nc1[nH]c(=O)ncc1F | - | - | MIC50 | - | >64 µg/mL
COc1ccc2nc(F)c(C3C(C#N)=C(N)N(c4nc(-c5ccc(O)cc5)cs4)C4=C3C(=O)CCC4)cc2c1 | MTCC 3008 | - | MIC | broth dilution | >1000 µg/mL
CN(C/C=C/C#CC(C)(C)C)Cc1cccc2ccccc12 | - | - | MIC80 | broth dilution | >64 µg/mL
CCCSc1ccc2nc(NC(=O)OC)[nH]c2c1 | 27 isolates | - | Geometric mean MIC | - | 0.74 µg/mL
N#CC1=C(N)Oc2c(c(=O)oc3ccccc23)C1c1cc2ccccc2nc1Oc1ccccc1 | MTCC 3008 | - | MIC | - | 500 µg/mL
COc1ccc2nc(Oc3ccc(F)cc3)c(C3C(C#N)=C(N)OC4=C3C(=O)CCC4)cc2c1 | MTCC 3008 | - | MIC | - | 500 µg/mL
Cc1ccc2nc(C(C#N)Cc3cc4ccccc4nc3N3CCOCC3)[nH]c2c1 | MTCC 3008 | - | MIC | broth dilution | 500 µg/mL
N=C(N)c1ccc(OCCCCCOc2ccc(C(=N)N)cc2)cc1 | 20 isolates | - | Geometric mean MIC | - | >128 µg/mL
COc1ccc2nc(Oc3ccc(C)cc3)c(C3C(C#N)=C(N)OC4=C3C(=O)CCC4)cc2c1 | MTCC 3008 | - | MIC | - | 1000 µg/mL
COc1ccc2nc(Sc3ccccc3)c(C3C(C#N)=C(N)Oc4c3c(=O)oc3ccccc43)cc2c1 | MTCC 3008 | - | MIC | broth dilution | >1000 µg/mL
Cc1ccc(Oc2nc3ccccc3cc2C2C(C#N)=C(N)OC3=C2C(=O)CC(C)(C)C3)cc1 | MTCC 3008 | - | MIC | - | 500 µg/mL
Cc1nn(-c2ccccc2)c(Oc2ccccc2)c1C1C(C#N)=C(N)OC2=C1C(=O)CC(C)(C)C2 | MTCC 3008 | - | MIC | - | 1000 µg/mL
COc1ccc2nc(Oc3ccc(C)cc3)c(C3C(C#N)=C(N)Oc4c3c(=O)oc3ccc(C)cc43)cc2c1 | MTCC 3008 | - | MIC | - | 500 µg/mL
CC[C@@H]([C@H](C)O)n1ncn(-c2ccc(N3CCN(c4ccc(OC[C@@H]5CO[C@@](Cn6cncn6)(c6ccc(F)cc6F)C5)cc4)CC3)cc2)c1=O | - | - | MIC50 | - | 0.125–0.5 µg/mL
Nc1ccc(S(=O)(=O)Nc2ncccn2)cc1 | 20 isolates | - | MFC | - | >400 µg/mL
COc1ccc(Oc2nc3ccc(C)cc3cc2C2C(C#N)=C(N)OC3=C2C(=O)CC(C)(C)C3)cc1 | MTCC 3008 | - | MIC | - | 250 µg/mL
CNCCC(Oc1ccc(C(F)(F)F)cc1)c1ccccc1 | 10 clinical isolates | - | MFC | - | 156–312 µg/mL
C[C@H]1[C@H](O)[C@@H](C)/C=C/C=C/C=C/C=C/C=C/C=C/C=C/[C@H](O[C@@H]2O[C@H](C)[C@@H](O)[C@H](N)[C@@H]2O)C[C@@H]2O[C@](O)(C[C@@H](O)C[C@@H](O)CC[C@H](O)[C@@H](O)C[C@@H](O)CC(=O)O[C@H]1C)C[C@H](O)[C@H]2C(=O)O | - | - | MIC90 | - | 0.5–8 µg/mL
C[C@H]1[C@H](O)[C@@H](C)/C=C/C=C/C=C/C=C/C=C/C=C/C=C/[C@H](O[C@@H]2O[C@H](C)[C@@H](O)[C@H](N)[C@@H]2O)C[C@@H]2O[C@](O)(C[C@@H](O)C[C@@H](O)CC[C@H](O)[C@@H](O)C[C@@H](O)CC(=O)O[C@H]1C)C[C@H](O)[C@H]2C(=O)O | 156 isolates | - | MIC50 | - | 0.5 µg/mL
CCCCCOc1ccc(-c2cc(-c3ccc(C(=O)N[C@H]4C[C@@H](O)[C@@H](O)NC(=O)[C@@H]5[C@@H](O)[C@@H](C)CN5C(=O)[C@H]([C@H](O)CC(N)=O)NC(=O)[C@H]([C@H](O)[C@@H](O)c5ccc(O)c(OS(=O)(=O)O)c5)NC(=O)[C@@H]5C[C@@H](O)CN5C(=O)[C@H]([C@@H](C)O)NC4=O)cc3)no2)cc1 | - | - | MIC50 | - | 0.015 µg/mL
CC(C)(C)c1ccc(CN(Cc2cccc3ccccc23)n2cnnc2)cc1 | - | - | MIC | - | >200 µM
CCOC(=O)C1=C(N)N(c2nc(-c3ccccc3O)cs2)C2=C(C(=O)CCC2)C1c1cc2cc(C)ccc2nc1F | MTCC 3008 | - | MIC | broth dilution | >1000 µg/mL
COc1ccc2nc(Oc3ccc(C)cc3)c(C3C(C#N)=C(N)Oc4c3c(=O)oc3ccccc43)cc2c1 | MTCC 3008 | - | MIC | - | >1000 µg/mL
Cc1ccc(-n2nc(C)c(C3C(C#N)=C(N)OC4=C3C(=O)CC(C)(C)C4)c2Oc2ccccc2)cc1 | MTCC 3008 | - | MIC | - | 1000 µg/mL
CCCCCCCCNC1CCc2cccc(O)c2C1 | - | - | MIC | - | 16 µM
C[C@H]1[C@H](O)[C@@H](C)/C=C/C=C/C=C/C=C/C=C/C=C/C=C/[C@H](O[C@@H]2O[C@H](C)[C@@H](O)[C@H](N)[C@@H]2O)C[C@@H]2O[C@](O)(C[C@@H](O)C[C@@H](O)CC[C@H](O)[C@@H](O)C[C@@H](O)CC(=O)O[C@H]1C)C[C@H](O)[C@H]2C(=O)O | - | - | MIC | broth dilution | 0.12 µg/mL
CCCCCCCCCCCCC#CCCCCC(=O)O | - | - | EC50 | broth dilution | 0.34 µg/mL
C[C@H]1[C@H](O)[C@@H](C)/C=C/C=C/C=C/C=C/C=C/C=C/C=C/[C@H](O[C@@H]2O[C@H](C)[C@@H](O)[C@H](N)[C@@H]2O)C[C@@H]2O[C@](O)(C[C@@H](O)C[C@@H](O)CC[C@H](O)[C@@H](O)C[C@@H](O)CC(=O)O[C@H]1C)C[C@H](O)[C@H]2C(=O)O | NFI 0159 | - | MIC | - | 1 µg/mL
Cc1ccc(Sc2nc3ccccc3cc2C2C(C#N)=C(N)Oc3cc(C)oc(=O)c32)cc1 | MTCC 3008 | - | MIC | broth dilution | 200 µg/mL
CC(C)(C)c1ccc(CN(Cc2cccc3ccccc23)N2C=NNC2)cc1 | - | - | MIC | - | >200 µM
COc1ccc(Oc2c(C3C(C#N)=C(N)OC4=C3C(=O)CC(C)(C)C4)c(C)nn2-c2ccccc2)cc1 | MTCC 3008 | - | MIC | - | 250 µg/mL
CCOC(=O)C1=C(N)N(c2nc(-c3ccccc3)cs2)C2=C(C(=O)CCC2)C1c1cc2ccccc2nc1F | MTCC 3008 | - | MIC | broth dilution | 250 µg/mL
CC1C(N=Nc2ccc(Cl)cc2)SC(=Nc2ccccc2)N1CCN1C(=Nc2ccccc2)SC(N=Nc2ccc(Cl)cc2)C1C | - | - | MIC | broth dilution | 3.9 µg/mL
CN(C/C=C/C#CC(C)(C)C)Cc1cccc2ccccc12 | 60 isolates | - | Geometric mean MIC | - | 30.55 µg/mL
CC1C(N=Nc2ccccc2)SC(=Nc2ccccc2)N1CCN1C(=Nc2ccccc2)SC(N=Nc2ccccc2)C1C | - | - | MIC | broth dilution | 31.25 µg/mL
Cc1cc2c(c(=O)o1)C(c1cc3ccccc3nc1Sc1ccccc1)C(C#N)=C(N)O2 | MTCC 3008 | - | MIC | broth dilution | 1000 µg/mL
Cc1ccc2nc(F)c(C3C(C#N)=C(N)N(c4nc(-c5ccc(Cl)cc5)cs4)C4=C3C(=O)CCC4)cc2c1 | MTCC 3008 | - | MIC | broth dilution | 1000 µg/mL
Cc1nn(-c2ccccc2)c(Oc2ccc(Cl)cc2)c1C1C(C#N)=C(N)OC2=C1C(=O)CCC2 | MTCC 3008 | - | MIC | - | 250 µg/mL
C[C@@H](c1ncncc1F)[C@](O)(Cn1cncn1)c1ccc(F)cc1F | NFI 0239 | - | MFC | - | 1 µg/mL
Cc1ccc(Oc2c(C3C(C#N)=C(N)OC4=C3C(=O)CC(C)(C)C4)c(C)nn2-c2ccccc2)cc1 | MTCC 3008 | - | MIC | - | 1000 µg/mL
C(=C\c1ccccc1)/CN(Cc1cccc2ccccc12)n1ccnc1 | - | - | MIC | - | >200 µM
O=S(=O)(O)CCNCl | ATCC 13073 | - | MIC90 | - | 35.4 µM
COc1cc(Cc2cnc(N)nc2N)cc(OC)c1OC | 20 isolates | - | MFC | - | >16 µg/mL
O=C/C=C/c1ccccc1 | AF293 | - | MIC | agar | 1000 µM
Cc1ccc2nc(N3CCOCC3)c(/C=C(/C#N)c3nc4ccc(C)cc4[nH]3)cc2c1 | MTCC 3008 | - | MIC | broth dilution | 500 µg/mL
COc1ccccc1C=O | AF293 | - | MIC | agar | 2000 µM
Cc1ccc2nc(N3CCOCC3)c(CC(C#N)c3nc4ccccc4[nH]3)cc2c1 | MTCC 3008 | - | MIC | broth dilution | 500 µg/mL
C[C@@H](c1ncncc1F)[C@](O)(Cn1cncn1)c1ccc(F)cc1F | - | - | MIC50 | - | 0.25–1 µg/mL
Nc1ccc(S(=O)(=O)c2ccc(N)cc2)cc1 | 20 isolates | - | Geometric mean MIC | - | >16 µg/mL
Cc1ccc2nc(Sc3ccccc3)c(C3C(C#N)=C(N)Oc4cc(C)oc(=O)c43)cc2c1 | MTCC 3008 | - | MIC | broth dilution | 200 µg/mL

The first 8 rows once more:

{"compound": "Cc1ccc(-n2nc(C)c(C3C(C#N)=C(N)OC4=C3C(=O)CCC4)c2Oc2ccc(Cl)cc2)cc1", "strain or isolate": "MTCC 3008", "endpoint": "MIC", "result": "250 µg/mL"}
{"compound": "Cc1ccc(Oc2nc3ccccc3cc2C2C(C#N)=C(N)Oc3c2c(=O)oc2ccc(C)cc32)cc1", "strain or isolate": "MTCC 3008", "endpoint": "MIC", "result": "500 µg/mL"}
{"compound": "CCOC(=O)C1=C(N)N(c2nc(-c3ccccc3)cs2)C2=C(C(=O)CCC2)C1c1cc2cc(OC)ccc2nc1F", "strain or isolate": "MTCC 3008", "endpoint": "MIC", "read by": "broth dilution", "result": "100 µg/mL"}
{"compound": "COc1ccc(OC)c(C=O)c1", "strain or isolate": "AF293", "endpoint": "MIC", "read by": "agar", "result": "1500 µM"}
{"compound": "C[C@@H]1[C@H](O)[C@@H](C)/C=C/C=C/CC/C=C/C=C/C=C/C=C/C(O[C@H]2O[C@H](C)[C@@H](O)[C@H](N)[C@@H]2O)CC2O[C@](O)(CC(O)C(O)CCC(O)CC(O)CC(O)CC(=O)O[C@H]1C)CC(O)C2C(=O)O", "strain or isolate": "MTCC 3008", "endpoint": "MIC", "read by": "broth dilution", "result": "100 µg/mL"}
{"compound": "CCC(C)n1ncn(-c2ccc(N3CCN(c4ccc(OC[C@H]5CO[C@](Cn6cncn6)(c6ccc(Cl)cc6Cl)O5)cc4)CC3)cc2)c1=O", "mutations": "TR46 azole-resistant", "endpoint": "MIC50", "read by": "broth dilution", "result": ">16 µg/mL"}
{"compound": "Cc1ccc2nc(Oc3ccccc3)c(C3C(C#N)=C(N)OC4=C3C(=O)CCC4)cc2c1", "strain or isolate": "MTCC 3008", "endpoint": "MIC", "result": ">1000 µg/mL"}
{"compound": "N#CC(Cc1cc2ccccc2nc1N1CCOCC1)c1nc2ccccc2[nH]1", "strain or isolate": "MTCC 3008", "endpoint": "MIC", "read by": "broth dilution", "result": "1000 µg/mL"}